Data source: PubChem BioAssay AID624099 (ICCB-Longwood, 2012)

- Aim: 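Human genes that papillomavirus E2 requires to repress the HPV18 LCR promoter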 (primary screen)
- Cell system: human C33A cervical carcinoma cells (HPV-negative) stably expressing BPV1 E2 and an HPV18 LCR luciferase reporter
- Reagent: siRNA pool against human genes, 40 nM
- Time to read-out: 72 h
- Measurement: 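Per-well luciferase luminescence, z-scored on each plate against the plate mean and SD with control wells left out, then averaged across three replicate plates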
- Direction: mean z-score and z-score: higher = stronger reporter signal, weaker E2 silencing
- Active means: 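Hit if mean z-score reaches 2 and two or more of three replicate z-scores also reach 2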
In all, the deposit lists about 21,000 reagents; shown is an unselected part. 497 of all reagents (2.4%) count as active. 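Higher z means weaker E2 silencing; only reporter increases were scored, and knock-downs that hurt cell survival may mask genuine repressor factors.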 The numbers tell different reagents against one gene apart. No sequences are given here.

gene	pool no.	mean z-score	z-score, replicate A	z-score, replicate B	z-score, replicate C	call
BRINP1 (GeneID 1620)	1	0.89	0.67	0.97	1.04	inactive
LINC02796 (GeneID 339468)	1	0.13	0.79	-0.26	-0.13	inactive
LOC399920 (retired record) (GeneID 399920)	1	0.73	0.69	0.52	0.99	inactive
TMEM165 (GeneID 55858)	1	0.21	-0.04	0.32	0.34	inactive
LRRC8C (GeneID 84230)	1	0.1	-0.06	0	0.37	inactive
PAGE2B (GeneID 389860)	1	-0.04	0.1	0.13	-0.35	inactive
SELENOK (GeneID 58515)	1	-0.6	-0.6	-0.78	-0.41	inactive
MASP1 (GeneID 5648)	1	-0.33	-0.26	-0.19	-0.54	inactive
CD1C (GeneID 911)	1	0.64	0.91	0.48	0.53	inactive
SNX16 (GeneID 64089)	1	-0.55	-0.76	-0.43	-0.45	inactive
AEBP1 (GeneID 165)	1	-0.59	-0.43	-0.58	-0.75	inactive
LOC729698 (retired record) (GeneID 729698)	1	0.22	0.14	0.24	0.28	inactive
LOC729698 (retired record) (GeneID 729698)	2	0.11	0.11	-0.44	0.65	inactive
LOC729698 (retired record) (GeneID 729698)	3	0.05	0.15	-0.04	0.04	inactive
LOC729698 (retired record) (GeneID 729698)	4	0.55	0.77	0.25	0.63	inactive
LOC729698 (retired record) (GeneID 729698)	5	-0.12	0.15	-0.07	-0.43	inactive
LOC729698 (retired record) (GeneID 729698)	6	0.46	0.56	0.24	0.58	inactive
ST6GALNAC4 (GeneID 27090)	1	-0.64	-0.63	-0.7	-0.59	inactive
SYNCRIP (GeneID 10492)	1	-0.66	-0.34	-0.45	-1.2	inactive
C14orf93 (GeneID 60686)	1	-1.13	-0.61	-1.25	-1.52	inactive
ZWILCH (GeneID 55055)	1	0.93	1.06	0.81	0.92	inactive
TRMT112P6 (GeneID 391358)	1	-0.04	-0.09	0.09	-0.12	inactive
CD180 (GeneID 4064)	1	0.81	0.82	0.88	0.72	inactive
MAP3K3 (GeneID 4215)	1	0.3	0.08	0.45	0.36	inactive
NEUROG2 (GeneID 63973)	1	-1.02	-1.24	-1.23	-0.6	inactive
PTTG1IP (GeneID 754)	1	1.03	0.83	1.06	1.2	inactive
PHLDB2 (GeneID 90102)	1	0.41	0.23	0.42	0.57	inactive
CIMIP6 (GeneID 129852)	1	2.35	2.12	2.42	2.49	active
SYNJ2 (GeneID 8871)	1	0.54	0.35	0.47	0.79	inactive
LOC346545 (retired record) (GeneID 346545)	1	-0.76	-1.07	-0.35	-0.84	inactive
IGLJ3 (GeneID 28831)	1	1.18	1.25	1.05	1.22	inactive
YME1L1 (GeneID 10730)	1	-0.2	-0.29	-0.22	-0.1	inactive
NHSL2 (GeneID 340527)	1	-0.88	-0.87	-0.82	-0.95	inactive
NHSL2 (GeneID 340527)	2	0.89	0.7	1.23	0.73	inactive
RPS10P3 (GeneID 158104)	1	-0.1	0.38	-0.54	-0.13	inactive
LOC388809 (retired record) (GeneID 388809)	1	-0.58	-0.48	-0.94	-0.32	inactive
LOC400751 (retired record) (GeneID 400751)	1	0.15	0.34	0.51	-0.41	inactive
CCDC28B (GeneID 79140)	1	-0.34	-0.44	-0.25	-0.32	inactive
FLT3 (GeneID 2322)	1	-0.39	-0.41	-0.51	-0.27	inactive
FBXW5 (GeneID 54461)	1	-0.35	-0.33	-0.18	-0.53	inactive
MECR (GeneID 51102)	1	0.4	0.72	0.37	0.12	inactive
PRR27 (GeneID 401137)	1	0.45	0	0.83	0.52	inactive
NYAP1 (GeneID 222950)	1	-2.4	-2.36	-2.44	-1.72	inactive
SLFN5 (GeneID 162394)	1	-0.64	-0.46	-0.85	-0.61	inactive
TMEM87B (GeneID 84910)	1	0.48	0.43	0.52	0.48	inactive
FADS2 (GeneID 9415)	1	-0.45	-0.5	-0.09	-0.75	inactive
LOC340477 (retired record) (GeneID 340477)	1	-0.45	-0.6	-0.27	-0.5	inactive
MMP1 (GeneID 4312)	1	0.85	1.04	0.97	0.55	inactive

Reformatted: results already given
NHSL2 (GeneID 340527) #2 → mean z-score: 0.89; z-score, replicate A: 0.7; z-score, replicate B: 1.23; z-score, replicate C: 0.73; call: inactive
RPS10P3 (GeneID 158104) → mean z-score: -0.1; z-score, replicate A: 0.38; z-score, replicate B: -0.54; z-score, replicate C: -0.13; call: inactive
LOC388809 (retired record) (GeneID 388809) → mean z-score: -0.58; z-score, replicate A: -0.48; z-score, replicate B: -0.94; z-score, replicate C: -0.32; call: inactive
LOC400751 (retired record) (GeneID 400751) → mean z-score: 0.15; z-score, replicate A: 0.34; z-score, replicate B: 0.51; z-score, replicate C: -0.41; call: inactive
CCDC28B (GeneID 79140) → mean z-score: -0.34; z-score, replicate A: -0.44; z-score, replicate B: -0.25; z-score, replicate C: -0.32; call: inactive
FLT3 (GeneID 2322) → mean z-score: -0.39; z-score, replicate A: -0.41; z-score, replicate B: -0.51; z-score, replicate C: -0.27; call: inactive
FBXW5 (GeneID 54461) → mean z-score: -0.35; z-score, replicate A: -0.33; z-score, replicate B: -0.18; z-score, replicate C: -0.53; call: inactive
MECR (GeneID 51102) → mean z-score: 0.4; z-score, replicate A: 0.72; z-score, replicate B: 0.37; z-score, replicate C: 0.12; call: inactive

More records follow.
gene	pool no.	mean z-score	z-score, replicate A	z-score, replicate B	z-score, replicate C	call
ZNF467 (GeneID 168544)	1	0.04	-0.05	0.13	0.03	inactive
LYL1 (GeneID 4066)	1	0.62	0.32	0.58	0.97	inactive
AKR1B10 (GeneID 57016)	1	-0.95	-1.05	-0.54	-1.26	inactive
LOC392347 (retired record) (GeneID 392347)	1	-0.1	-0.03	0.02	-0.28	inactive
CEP170B (GeneID 283638)	1	0.23	0.37	0.23	0.08	inactive
CFHR3 (GeneID 10878)	1	0.32	0.25	0.43	0.29	inactive
AKT1 (GeneID 207)	1	0.91	0.9	0.53	1.31	inactive
NAXD (GeneID 55739)	1	-1.36	-1.48	-1.54	-1.06	inactive
FBRS (GeneID 64319)	1	-1.47	-1.68	-1.45	-1.29	inactive
RAC1 (GeneID 5879)	1	-0.04	-0.18	0.16	-0.08	inactive
RUNX3 (GeneID 864)	1	0.9	0.57	0.74	1.38	inactive
TELO2 (GeneID 9894)	1	-0.31	-0.21	-0.31	-0.39	inactive
GPRC5A (GeneID 9052)	1	-0.97	-0.81	-1.04	-1.06	inactive
FERMT1 (GeneID 55612)	1	0.1	0.62	0.03	-0.33	inactive
NANP (GeneID 140838)	1	0.5	0.24	0.47	0.78	inactive
ZNF517 (GeneID 340385)	1	1.01	0.99	1.07	0.96	inactive
LOC390192 (retired record) (GeneID 390192)	1	-0.22	0.08	-0.44	-0.32	inactive
RNF146 (GeneID 81847)	1	1.2	0.54	1.11	1.95	inactive
RBM4B (GeneID 83759)	1	0.26	0.37	0.54	-0.13	inactive
PCDH11X (GeneID 27328)	1	0.24	0.33	0.09	0.29	inactive
FTH1 (GeneID 2495)	1	0.28	0.44	0.23	0.19	inactive
OR10J3 (GeneID 441911)	1	-0.01	0.16	-0.07	-0.12	inactive
ZFAND6 (GeneID 54469)	1	1.78	1.83	1.74	1.78	inactive
ATP2C1 (GeneID 27032)	1	0.49	0.24	0.64	0.59	inactive
GCH1 (GeneID 2643)	1	1.03	0.55	1.65	0.89	inactive
